Laboratory results: patent US20200279616A1

Molecular target: Soluble DR1 (sDR1) (human)
Test: FP competition assay, average of n=2

HA peptide was tested. Which IC50 did it give?
Its IC50 is 72 nM.
